{"source": "paper PMC10108276", "about": "“Siderophore‐Linked Ruthenium Catalysts for Targeted Allyl Ester Prodrug Activation within Bacterial Cells” (Chemistry (Weinheim an Der Bergstrasse, Germany), 2022)", "assay": "ICP-MS measurement of iron and ruthenium content of media", "details": "additive at 100 µM"}
{"smiles": "[Cl][Fe]([Cl])[Cl]", "note": "[FeCl3]", "values": [{"measurement": "[56Fe] of growth medium", "setting": "chelexed MHII, 200 µM bpy, 1% DMSO", "value": 155, "unit": "µM"}, {"measurement": "[101Ru] of growth medium", "setting": "lowest limit of quantification = 36.2 ppb", "value": "< LLOQ"}]}
